Results deposited as PubChem BioAssay AID624099 (ICCB-Longwood, 2012)

Purpose: 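Knock-downs relieving repression by E2 of an HPV18 LCR luciferase reporter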 (primary screen)
Cell system: human C33A cervical carcinoma cells (HPV-negative) stably expressing BPV1 E2 and an HPV18 LCR luciferase reporter
Reagent: siRNA pool against human genes, 40 nM
Timing: 72 h
Detection: 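Per-well luciferase luminescence, z-scored on each plate against the plate mean and SD with control wells left out, then averaged across three replicate plates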
Direction: mean z-score and z-score: higher = stronger reporter signal, weaker E2 silencing
Hit rule: 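Hit if mean z-score reaches 2 and two or more of three replicate z-scores also reach 2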
In all, the deposit lists about 21,000 reagents; this is a part drawn at random. 497 of all reagents (2.4%) count as active. 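Higher z means weaker E2 silencing; only reporter increases were scored, and knock-downs that hurt cell survival may mask genuine repressor factors.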 The numbers tell different reagents against one gene apart. No sequences are given here.

ADD1 (adducin 1)
- mean z-score: 0.66
- z-score, replicate A: 0.52
- z-score, replicate B: 0.69
- z-score, replicate C: 0.78
- outcome: inactive

LINC01342 (long independently transcribed non-coding RNA 1342)
- mean z-score: 0.53
- z-score, replicate A: 0.6
- z-score, replicate B: 0.49
- z-score, replicate C: 0.52
- outcome: inactive

KIF7 (kinesin family member 7) #1
- mean z-score: -0.72
- z-score, replicate A: -0.95
- z-score, replicate B: -0.47
- z-score, replicate C: -0.75
- outcome: inactive

KIF7 (kinesin family member 7) #2
- mean z-score: 0.8
- z-score, replicate A: 1.02
- z-score, replicate B: 0.64
- z-score, replicate C: 0.74
- outcome: inactive

LOC391745 (retired record)
- mean z-score: 0.25
- z-score, replicate A: 0.13
- z-score, replicate B: 0.27
- z-score, replicate C: 0.34
- outcome: inactive

TMC6 (transmembrane channel like 6)
- mean z-score: -1.83
- z-score, replicate A: -1.71
- z-score, replicate B: -1.87
- z-score, replicate C: -1.91
- outcome: inactive

GALNT9 (polypeptide N-acetylgalactosaminyltransferase 9)
- mean z-score: 0.13
- z-score, replicate A: 0.18
- z-score, replicate B: 0.05
- z-score, replicate C: 0.16
- outcome: inactive

CFI (complement factor I)
- mean z-score: -0.46
- z-score, replicate A: -0.13
- z-score, replicate B: -0.42
- z-score, replicate C: -0.82
- outcome: inactive

TERF1 (telomeric repeat binding factor 1)
- mean z-score: 0.24
- z-score, replicate A: 0.53
- z-score, replicate B: 0.15
- z-score, replicate C: 0.05
- outcome: inactive

ZNF766 (zinc finger protein 766)
- mean z-score: 0.03
- z-score, replicate A: 0.06
- z-score, replicate B: 0.27
- z-score, replicate C: -0.25
- outcome: inactive

SLC25A16
- mean z-score: 0.34
- z-score, replicate A: 0.46
- z-score, replicate B: 0.43
- z-score, replicate C: 0.14
- outcome: inactive

LOC387901 (retired record)
- mean z-score: 0.04
- z-score, replicate A: -0.15
- z-score, replicate B: 0
- z-score, replicate C: 0.28
- outcome: inactive

EPS8 (EGFR pathway substrate 8, signaling adaptor)
- mean z-score: 0.11
- z-score, replicate A: -0.18
- z-score, replicate B: 0.3
- z-score, replicate C: 0.21
- outcome: inactive

LOC284009
- mean z-score: -0.33
- z-score, replicate A: -1.17
- z-score, replicate B: 0.1
- z-score, replicate C: 0.07
- outcome: inactive

A portion from the list above, as a working copy:
ZNF766 (zinc finger protein 766)
- mean z-score: 0.03
- z-score, replicate A: 0.06
- z-score, replicate B: 0.27
- z-score, replicate C: -0.25
- outcome: inactive

SLC25A16
- mean z-score: 0.34
- z-score, replicate A: 0.46
- z-score, replicate B: 0.43
- z-score, replicate C: 0.14
- outcome: inactive
